From patent US9598481B2 (priority 2012, dated 2017)
Several values for one entry are separate records, joined by “and”; a condition that tells them apart may be missing. Equal entries are not always repeated.

B1: mAb 39.29 NCv1: anti-hemagglutinin monoclonal antibody; VL SEQ ID NO:144, VH SEQ ID NO:142 (antibody, V domains shown)
VH: QVQLVESGGGVVQPGKSPRLSCAASGPTFSSYAVHWVRQAPGKGLEWVTLISYDGANQYYADSVKGRFTISRDNSKNTVYLQMNSLRPEDTAVYYCAVPGPVFGIFPPWSYFDNWGQGILVTVSS
VL: EIVLTQSPATLSVSPGERATLSCRASQVISHNLAWYQQKPGQAPRLLIYGASTRASGIPARFSGSGSGTDYTLTITSLQPEDFAVYYCQHYSNWPPRLTFGGGTKVEIK
B2: mAb 39.29 D8C2: anti-hemagglutinin monoclonal antibody; VL SEQ ID NO:140, VH SEQ ID NO:138 (antibody, V domains shown)
VH: QVQLVESGGGVVQPGKSLRLSCAASGLTFSSYAVHWVRQAPGKGLEWVTLISYDGANQYYADSVKGRFTISRDNSKNTVYLQMNSLRPEDTAVYYCAVPGPVFGIFPPWSYFDNWGQGILVTVSS
VL: EIVLTQSPATLSVSPGERATLSCRASQVISHNLAWYQQKPGQAPRLLIYGASTRASGIPARFSGSGSGTDYTLTITSLQSEDFAVYYCQHYSNWPPRLTFGGGTKVEIK

What was measured:
[1] = system: H1N1 A/PR/8/1934; parameters: species or system DBA/2J mice; conditions: mouse, iv
[2] = system: H5N1 A/Vietnam/1203/04 influenza A virus; parameters: species or system ferrets (Mustela putorius furo); conditions: in vivo, iv, 25 mg/kg

| Molecule | minimum efficacious dose in vivo [1] | mortality [2] | survival [2] |
| --- | --- | --- | --- |
| B1 | 15 mg/kg |  |  |
| B2 |  | 20% and 10% | 80% and 90% |
